Test system: Pseudoperonospora cubensis
Assay: Control test of plant disease caused by Pseudoperonospora cubensis (cucumber, foliage spray; Test Examples 2 and 7)
Type: in vivo
[1] = cucumber foliage spray, effective component 50 ppm, degree of disease after 5 days

Cc1snnc1/C(=N\OCc1csc(NC(=O)C(C)C)n1)c1ccc(Cl)c(Cl)c1 [13-(a)-8]
Evaluation (Test Example 7, same method as Test Example 2, Table 98): B (grade “B” was selected when the number of diseased plants, which include plants with lesions or withered plants, is around 10% among the total numbers of plants)

Cc1snnc1C(=NOCc1csc(N)n1)c1ccccc1 [8-(a)-1]
Evaluation [1]: B (grade “B” was selected when the number of diseased plants, which include plants with lesions or withered plants, is around 10% among the total numbers of plants)

Cc1snnc1/C(=N\OCc1csc(NC(=O)C(C)C)n1)c1cccc(Cl)c1 [13-(a)-2]
Evaluation [1]: B (grade “B” was selected when the number of diseased plants, which include plants with lesions or withered plants, is around 10% among the total numbers of plants)

From patent US6340697B1, “Oxime derivatives and agricultural chemicals containing the same” (Dainippon Ink and Chemicals, Inc., priority 1997, dated 2002)
